Anti-infective test results gathered from many reports (values: NIAID ChemDB through PubChem).

Shared fields: growth or infection tests; agent: Toxoplasma gondii

Two numbers with a dash give a range or band. An empty or dashed field is not shown. ECn is the concentration giving n% inhibition of infection, replication or growth. Lines come from different laboratories, so protocols vary. A number after MIC or MFC names an inhibition level or a share of isolates.

O=C(NC(=S)Nc1cccc([N+](=O)[O-])c1)c1ccccc1COc1ccc(Cl)cc1 ; measure: EC50 ; strain or isolate: RH beta-gal ; cells: Human foreskin fibroblasts (HFF) ; result: 118 µM
Cc1cc2c(o1)C(=O)c1cc3ncsc3cc1C2=O ; measure: EC50 ; cells: THP-1 ; result: 0.0007 µM
O=C1C(=O)c2ccccc2C(O)=C1C1CCC(c2ccc(Cl)cc2)CC1 ; measure: EC50 ; strain or isolate: RH ; result: 0.001–0.1 µM
Nc1ccc(S(=O)(=O)Nc2ncc(OS(=O)(=O)O)cn2)cc1 ; measure: EC50 ; result: >250 µg/mL
CC1(C)CC2=C(O1)C(=O)C=C(Br)C2=O ; measure: EC50 ; cells: THP-1 ; result: 0.0032 µM
COC(=O)CCC(=O)Nc1ccc(C(=O)NC(=O)c2ccccc2O)cc1 ; measure: MIC50 ; cells: Human foreskin fibroblasts ; result: >1 µM
COc1ccc(OCc2ccccc2C(=O)NC(=S)Nc2cccc3ccccc23)cc1 ; measure: EC50 ; strain or isolate: RH beta-gal ; cells: Human foreskin fibroblasts (HFF) ; result: 100 µM
Cc1nc(N)nc(N)c1C#CC(C)(C)C ; measure: MIC ; result: 0.025 µg/mL
COc1ccc(OC)c2[nH]c(C(=O)O)cc12 ; measure: EC50 ; strain or isolate: RH ; cells: THP-1 ; result: 0.0007 µM
COc1c(N2C[C@@H]3C(N)[C@@H]3C2)c(F)cc2c(=O)c(C(=O)O)cn(-c3ccc(F)cc3F)c12 ; measure: EC50 ; result: 19 µg/mL
O=C1C=C(Br)C(=O)c2c(O)cccc21 ; measure: EC50 ; result: 1.28 µg/mL
Cc1noc(NS(=O)(=O)c2ccc(N)cc2)c1C ; measure: EC50 ; strain or isolate: RH ; result: 6.4 µg/mL
COc1ccccc1S(=O)(=O)NC(=O)c1ccc(NC(=O)CCCCCCC(=O)NO)cc1 ; measure: MIC50 ; cells: Human foreskin fibroblasts ; result: >0.25 µM
COc1c(N2C[C@@H]3C(CN)[C@@H]3C2)c(F)cc2c(=O)c(C(=O)O)cn(-c3ccc(F)cc3F)c12 ; measure: EC50 ; result: 22 µg/mL
COc1cc2[nH]c(C)c(-c3ccc(Oc4ccc(OC(F)(F)F)cc4)cc3)c(=O)c2cc1F ; measure: EC50 ; read by: absorbance ; strain or isolate: 2F ; result: 0.000007 µM
CC(C)(C)OC(=O)NCCn1ccc2c1C(=O)C=CC2=O ; measure: EC50 ; strain or isolate: RH ; cells: THP-1 ; result: 0.0021 µM
CCc1ccc(C(=O)Nc2n[nH]c3ccccc23)cc1 ; measure: MIC90 ; cells: Human foreskin fibroblasts ; result: >0.125 µM
O=C1C(=O)c2ccccc2C(O)=C1C1CCC(c2ccc(Cl)cc2)CC1 ; measure: EC50 ; strain or isolate: RH atovaquone-resistant ; result: 0.5 µM
O=C(NC(=O)c1ccccc1OCc1ccccc1)c1ccccc1O ; measure: MIC50 ; cells: Human foreskin fibroblasts ; result: >0.25 µM
Cc1[nH]c(=O)cc2c1C(=O)c1cccc(O)c1C2=O ; measure: EC50 ; result: 2 µg/mL
O=C(NC(=S)Nc1ccccc1Cl)c1ccccc1COc1ccc(Cl)cc1 ; measure: EC50 ; strain or isolate: RH beta-gal ; cells: Human foreskin fibroblasts (HFF) ; result: 83 µM
CCCC1=C(OCCCCCCO)C(C)SC1=O ; measure: EC50 ; strain or isolate: RH ; result: 29.9 µM
CNC1[C@H]2CN(c3nc4c(cc3F)c(=O)c(C(=O)O)cn4C3CC3)C[C@@H]12 ; measure: EC50 ; result: 4.3 µg/mL
Cc1ccc(NC(=S)NC(=O)c2ccccc2COc2ccc(Cl)cc2)cc1 ; measure: EC50 ; strain or isolate: RH beta-gal ; cells: Human foreskin fibroblasts (HFF) ; result: 31 µM
Cc1c(F)c(N2CCNC(C)C2)cc2c1c(=O)c(C(=O)O)cn2C1CC1 ; measure: EC50 ; result: 2.4 µg/mL
CCc1nc(N)nc(N)c1-c1ccc(Cl)cc1 ; measure: MIC ; result: 0.5 µg/mL
COc1cccc2c1C(=O)C=CC2=O ; measure: EC50 ; result: 2.3 µg/mL
[N-]=[N+]=NCCn1ccc2c(O)ccc(O)c21 ; measure: EC50 ; strain or isolate: RH ; cells: THP-1 ; result: 0.0031 µM
CC[C@H]1OC(=O)[C@H](C)[C@@H](O[C@H]2C[C@@](C)(OC)[C@@H](O)[C@H](C)O2)[C@H](C)[C@@H](O[C@@H]2O[C@H](C)C[C@H](N(C)C)[C@H]2O)[C@](C)(O)C[C@@H](C)CN(C)[C@H](C)[C@@H](O)[C@]1(C)O ; measure: EC90 ; strain or isolate: RH ; result: 25.4 µg/mL
COc1ccc(OCc2ccccc2C(=O)NC(=S)Nc2c(Cl)cccc2Cl)cc1 ; measure: EC50 ; strain or isolate: RH beta-gal ; cells: Human foreskin fibroblasts (HFF) ; result: 73 µM
COC(=O)c1cccc2c1C(=O)c1c[nH]c(=O)cc1C2=O ; measure: EC50 ; result: 1.64 µg/mL
COC(=O)c1cc2c(s1)C(=O)C=CC2=O ; measure: EC50 ; cells: THP-1 ; result: 0.001 µM
CN1CCC(c2cc(-c3ccncc3)c(-c3ccc(F)cc3)[nH]2)CC1 ; measure: EC50 ; strain or isolate: ET-PKG FLAG ; result: 0.3 µM
O=C1c2cc(=O)[nH]cc2C(=O)c2c(O)cccc21 ; measure: EC50 ; result: 1.86 µg/mL
O=C1c2cc3scnc3cc2C2=NCCn3ccc1c32 ; measure: EC50 ; strain or isolate: RH ; cells: THP-1 ; result: 0.0051 µM
COc1ccc2cc(C(=O)NC(=O)c3ccccc3O)ccc2c1 ; measure: MIC90 ; cells: Human foreskin fibroblasts ; result: >0.25 µM
CC1(C)CC2=C(O1)C(=O)c1cc3scnc3cc1C2=O ; measure: EC50 ; cells: THP-1 ; result: 0.0041 µM
CCc1ccc(C(=O)NC(=O)c2cc(Cl)ccc2O)cc1 ; measure: MIC50 ; cells: Human foreskin fibroblasts ; result: >0.25 µM
COc1ccc(OC)c2[nH]ccc12 ; measure: EC50 ; strain or isolate: RH ; cells: THP-1 ; result: 0.0007 µM
Cc1c2c(c[nH]c1=O)C(=O)c1cccc(O)c1C2=O ; measure: EC50 ; result: 1.76 µg/mL
COc1ccc(OC)c(Cc2cnc3nc(N)nc(N)c3c2C)c1 ; measure: EC50 ; strain or isolate: RH ; result: 0.0069 µg/mL
CN(C)c1ccc(C(=O)NC(=O)c2ccccc2O)cc1 ; measure: MIC90 ; cells: Human foreskin fibroblasts ; result: 0.125–0.62 µM
Cc1[nH]c2nc(N)[nH]c(=O)c2c1CSc1ccncc1 ; measure: EC50 ; result: 831 µM
COC(=O)C1C=CNC2=C1C(=O)c1c(OC)cccc1C2=O ; measure: EC50 ; result: 1.25 µg/mL
CCCCCCCCCCC1(C)SC(=O)C(C)=C1O ; measure: EC50 ; strain or isolate: RH ; result: 28.8 µM
CCc1ccc(C(=O)Nc2cn(C(C)=O)c3ccccc23)cc1 ; measure: MIC50 ; cells: Human foreskin fibroblasts ; result: >0.125 µM

4 of the rows above, restated:

structure	measure	read by	strain or isolate	cells	result
COc1c(N2C[C@@H]3C(CN)[C@@H]3C2)c(F)cc2c(=O)c(C(=O)O)cn(-c3ccc(F)cc3F)c12	EC50	-	-	-	22 µg/mL
[N-]=[N+]=NCCn1ccc2c(O)ccc(O)c21	EC50	-	RH	THP-1	0.0031 µM
COC(=O)c1cccc2c1C(=O)c1c[nH]c(=O)cc1C2=O	EC50	-	-	-	1.64 µg/mL
O=C1C(=O)c2ccccc2C(O)=C1C1CCC(c2ccc(Cl)cc2)CC1	EC50	-	RH atovaquone-resistant	-	0.5 µM